Assay results taken from ChEMBL document CHEMBL1131418, “Antiviral oligo- and polyribonucleotides containing selected triazolo[2,3-a]purines” (J Med Chem, 1998).

Each molecule was assayed on CEM-SS (assay: Cytotoxic dose for anti-HIV activity against HIV-IIIB in CEM-SS cells). Details: Homo sapiens.
Assay type: functional

Q: How did the CD50 turn out when `CO[C@@H]1[C@H](OP(C)(=O)O)[C@@H](COP(C)(=O)O)O[C@H]1n1cnc2c(=S)n3ncn(C)c3nc21` was run?
A: > 7 µM

Q: For `Cn1cnn2c(=O)c3ncn([C@@H]4O[C@H](COP(C)(=O)O)[C@@H](OP(C)(=O)O)[C@H]4O)c3nc12`, which CD50 is on record?
A: > 2.5 µM

Q: How did the CD50 turn out when `Cn1cnc2c(ncn2[C@@H]2O[C@H](COP(C)(=O)O)[C@@H](OP(C)(=O)O)[C@H]2O)c1=S` was run?
A: > 1 µM
